PubChem BioAssay AID1259414 | Drosophila RNAi Screening Center, 2018
In all, the deposit lists about 24,000 reagents; this is an unselected part of those that have a named target and a result. Over the whole deposit, about 1,210 (5%) got an active call. 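Inactive calls also include excluded dsRNAs with several or no targets, genes unexpressed in JW18, and well A1, regardless of score.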 A number with no mark means an inactive call. A plus sign joins genes that one reagent is predicted to hit.

- Assay: 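Fly genes that alter Wolbachia amount inside host cells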 (primary screen)
- Cell system: Drosophila JW18 cells infected with Wolbachia
- Reagent: long dsRNA against Drosophila genes, 0.25 µg dsRNA per well of a 384-well plate
- Time to read-out: 5 days
- Treatment: cells persistently infected with Wolbachia before knock-down; no added drug
- Read-out: 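Imaged fluorescence in situ signal for Wolbachia 23S rRNA per DAPI-counted host cell, given as a robust z-score within each plate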
- Reading the numbers: Wolbachia per cell robust z: higher = more Wolbachia per host cell than the plate typical
- Call rule: 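Hit when robust z is 1.5 or more, or -1.5 or less, in at least two of three replicates; excludes dsRNAs with several or no targets, genes not expressed in JW18 and well A1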

The opening 3 entries, to show the layout:
sstn [DRSC10753]: Wolbachia per cell robust z, rep 1 = -0.25; Wolbachia per cell robust z, rep 2 = -0.293; Wolbachia per cell robust z, rep 3 = 0.401
sstn [DRSC29335]: Wolbachia per cell robust z, rep 1 = 0.17; Wolbachia per cell robust z, rep 2 = 0.792; Wolbachia per cell robust z, rep 3 = 0.537
Nop10 [DRSC28427]: Wolbachia per cell robust z, rep 1 = -0.555; Wolbachia per cell robust z, rep 2 = -1.84; Wolbachia per cell robust z, rep 3 = -1.23

Main list, repeating the preview:
sstn [DRSC10753]: Wolbachia per cell robust z, rep 1 = -0.25; Wolbachia per cell robust z, rep 2 = -0.293; Wolbachia per cell robust z, rep 3 = 0.401
sstn [DRSC29335]: Wolbachia per cell robust z, rep 1 = 0.17; Wolbachia per cell robust z, rep 2 = 0.792; Wolbachia per cell robust z, rep 3 = 0.537
Nop10 [DRSC28427]: Wolbachia per cell robust z, rep 1 = -0.555; Wolbachia per cell robust z, rep 2 = -1.84; Wolbachia per cell robust z, rep 3 = -1.23
Rnf146 [DRSC11045]: Wolbachia per cell robust z, rep 1 = -0.0663; Wolbachia per cell robust z, rep 2 = 0.0532; Wolbachia per cell robust z, rep 3 = 1.12
Snup + CG42304 [DRSC08276]: Wolbachia per cell robust z, rep 1 = -0.905; Wolbachia per cell robust z, rep 2 = -2.78; Wolbachia per cell robust z, rep 3 = -0.235
Snup + CG42304 [DRSC22781]: Wolbachia per cell robust z, rep 1 = -2.4; Wolbachia per cell robust z, rep 2 = -0.177; Wolbachia per cell robust z, rep 3 = -2.08
ogre [DRSC18809]: Wolbachia per cell robust z, rep 1 = -0.21; Wolbachia per cell robust z, rep 2 = -0.236; Wolbachia per cell robust z, rep 3 = -0.242
ogre [DRSC24730]: Wolbachia per cell robust z, rep 1 = 0.854; Wolbachia per cell robust z, rep 2 = -0.28; Wolbachia per cell robust z, rep 3 = 0.133
CG9875 [DRSC04585]: Wolbachia per cell robust z, rep 1 = -1.11; Wolbachia per cell robust z, rep 2 = 0.188; Wolbachia per cell robust z, rep 3 = -0.585
7B2 [DRSC11991]: Wolbachia per cell robust z, rep 1 = 0.239; Wolbachia per cell robust z, rep 2 = 0.886; Wolbachia per cell robust z, rep 3 = 0.608
cry [DRSC16928]: Wolbachia per cell robust z, rep 1 = 0.756; Wolbachia per cell robust z, rep 2 = -0.526; Wolbachia per cell robust z, rep 3 = 1.89
cry [DRSC40859]: Wolbachia per cell robust z, rep 1 = -1.74; Wolbachia per cell robust z, rep 2 = -1; Wolbachia per cell robust z, rep 3 = -0.783
Rsbp15 [DRSC14176]: Wolbachia per cell robust z, rep 1 = -1.74; Wolbachia per cell robust z, rep 2 = -0.579; Wolbachia per cell robust z, rep 3 = -0.264
Rsbp15 [DRSC29051]: Wolbachia per cell robust z, rep 1 = 0.782; Wolbachia per cell robust z, rep 2 = 1.17; Wolbachia per cell robust z, rep 3 = 0.17
Syt4 [DRSC12606]: Wolbachia per cell robust z, rep 1 = -0.138; Wolbachia per cell robust z, rep 2 = 0.825; Wolbachia per cell robust z, rep 3 = -0.123
CG34176 [DRSC00435]: Wolbachia per cell robust z, rep 1 = 1.75; Wolbachia per cell robust z, rep 2 = 2.26; Wolbachia per cell robust z, rep 3 = -0.274
CG34176 [DRSC41292]: Wolbachia per cell robust z, rep 1 = -0.0911; Wolbachia per cell robust z, rep 2 = 0.767; Wolbachia per cell robust z, rep 3 = 0.233
CG31482 [DRSC12582]: Wolbachia per cell robust z, rep 1 = -0.59; Wolbachia per cell robust z, rep 2 = -0.0281; Wolbachia per cell robust z, rep 3 = 0.0486
CG34041 [DRSC22276]: Wolbachia per cell robust z, rep 1 = 0.616; Wolbachia per cell robust z, rep 2 = -1.1; Wolbachia per cell robust z, rep 3 = 1.16
CG34041 [DRSC30023]: Wolbachia per cell robust z, rep 1 = 0.998; Wolbachia per cell robust z, rep 2 = -0.802; Wolbachia per cell robust z, rep 3 = -0.0358
BG642167 [DRSC38707]: Wolbachia per cell robust z, rep 1 = -0.506; Wolbachia per cell robust z, rep 2 = -1.67; Wolbachia per cell robust z, rep 3 = -0.716
CG17650 [DRSC00510]: Wolbachia per cell robust z, rep 1 = -0.0167; Wolbachia per cell robust z, rep 2 = -0.752; Wolbachia per cell robust z, rep 3 = -1.33
Prosbeta2R1 [DRSC18154]: Wolbachia per cell robust z, rep 1 = 0.492; Wolbachia per cell robust z, rep 2 = 1.43; Wolbachia per cell robust z, rep 3 = 0.598
CG10347 [DRSC19352]: Wolbachia per cell robust z, rep 1 = -0.756; Wolbachia per cell robust z, rep 2 = 0.595; Wolbachia per cell robust z, rep 3 = 0.518
